According to patent EP0479888B1, “IMPROVED BUILDER-CONTAINING AQUEOUS CLEANER/DEGREASER MICROEMULSION COMPOSITIONS” (BUCKEYE INTERNATIONAL, INC., priority 1989, dated 1991):

Test: aqueous solubility of organic solvents
Details: water

## CCCCOP(=O)(OCCCC)OCCCC
  aqueous ambient temperature solubility: 0.6 wt.%
